For this test, the target named is SARS-CoV-2 RBD-His, wild type (tPA-RBD-his) (SARS-CoV-2). Briefly: SPR.

Values joined by “and” are separate entries in the source; they are usually repeats but may differ in a detail not shown here. Equal entries are not always repeated.

Regarding ACE2-hFc (Fc fusion), the Kd was 43.2 nM and 99.6 nM.

(Values after publication PMC10088716.)
